Measured values from several laboratories, pooled; numbers as filed in NIAID ChemDB.

Shared fields: tests in culture; species: Varicella zoster virus; read by: plaque count; read-out: EC50

Two numbers with a dash give a range or band.

{"structure": "CC1(C)[C@H](CCO)C[C@@H]1n1nnc2c(N)ncnc21", "strain": "OKA (TK+)", "value": "3.2 µg/mL"}
{"structure": "Clc1ccc(-c2cc3ccccn3c2)c(Cl)c1", "strain": "G-31", "cells": "MRC-5", "value": ">40 µM"}
{"structure": "COC(=O)/C=C1/[C@@H](O[Si](C)(C)C(C)(C)C)[C@H](n2cc(C)c(=O)n(C)c2=O)O[C@@H]1CO[Si](C)(C)C(C)(C)C", "cells": "MRC-5", "value": ">7 µM"}
{"structure": "CC1(C)[C@@H](CCO)C[C@H]1n1cnc2c(=O)[nH]c(N)nc21", "strain": "TK+/YS", "cells": "HEL", "value": ">50 µg/mL"}
{"structure": "NC1=NC2C(C=CN2CC(CO)CCO)C(=O)N1", "strain": "07/1 (TK-)", "cells": "HEL", "value": "71.8 µM"}
{"structure": "Cc1c(Br)cc(Br)c2ncc(CSC(C)c3cccs3)n12", "strain": "YS/R (TK-)", "cells": "HEL", "value": ">2 µg/mL"}
{"structure": "O=C(NCc1ccc(Cl)cc1)c1c[nH]c2c(F)cccc2c1=O", "strain": "Webster", "value": "0.7 µM"}
{"structure": "CCCCCC#Cc1cn(S(=O)(=O)c2ccc(C)cc2)c(=O)[nH]c1=O", "strain": "OKA", "cells": "HEL", "value": ">16 µM"}
{"structure": "Nc1nc2c(ncn2CCC(CO)CO)c(=O)[nH]1", "strain": "YS/R (TK-)", "cells": "HEL", "value": "29 µg/mL"}
{"structure": "CCCCC#Cc1c[nH]c(=O)[nH]c1=O", "strain": "07/1", "cells": "HEL", "value": ">400 µM"}
{"structure": "Cc1c(Br)cc(Br)c2ncc(CSCc3ccc(F)cc3)n12", "strain": "YS (TK+)", "cells": "HEL", "value": ">5 µg/mL"}
{"structure": "O=c1nc2oc(CCCSc3ccccc3)cc2cn1[C@H]1C[C@H](O)[C@@H](CO)O1", "strain": "(TK-)07/1", "cells": "HEL", "value": ">50 µM"}
{"structure": "Nc1nc2c(ncn2C[C@]2(CO)C[C@H]2CO)c(=O)[nH]1", "value": "0.1–1 µM"}
{"structure": "CCCCCOCCCCc1cc2cn([C@H]3C[C@H](O)[C@@H](CO)O3)c(=O)nc2o1", "strain": "YS", "cells": "HEL", "value": "0.75 µM"}
{"structure": "OC[C@H]1O[C@@H](c2cc(C(O)C(Br)Br)c(F)cc2F)C[C@@H]1O", "strain": "07/1 (TK-)", "cells": "HEL", "value": ">200 µg/mL"}
{"structure": "O=c1nc2oc(CCCOc3ccccc3)cc2cn1[C@H]1C[C@H](O)[C@@H](CO)O1", "strain": "(TK-)/YS/R", "cells": "HEL", "value": ">200 µM"}
{"structure": "CC(C)(C)[Si](C)(C)OC[C@H]1O[C@@H](n2ccc(=O)[nH]c2=O)[C@H](O[Si](C)(C)C(C)(C)C)C1(O)C(Cl)C(N)=O", "cells": "MRC-5", "value": ">5 µM"}
{"structure": "CC1(C)[C@@H](CCO)C[C@H]1n1cnc2c(=O)[nH]cnc21", "strain": "(TK-)07/1", "cells": "HEL", "value": ">50 µg/mL"}
{"structure": "Cc1cn([C@@H]2O[C@H](CO[Si](C)(C)C(C)(C)C)C3(O[C@H]3C(=O)NN)[C@H]2O[Si](C)(C)C(C)(C)C)c(=O)[nH]c1=O", "cells": "MRC-5", "value": "3.9 µM"}
{"structure": "O=c1[nH]c(=O)n([C@H]2C[C@H](O)[C@@H](CO)O2)cc1/C=C/Br", "strain": "13 isolates", "cells": "HEL", "value": "0.0033 µM"}
{"structure": "CC1(C)[C@@H](CCO)C[C@H]1n1nnc2c(N)nc(N)nc21", "strain": "(TK-)07/1", "cells": "HEL", "value": ">20 µg/mL"}
{"structure": "NC1=NC2C(C=CN2CC(CO)CCO)C(=O)N1", "value": "0.01–0.1 µM"}
{"structure": "Cc1c(Br)cc(Br)c2ncc(CSCc3cccs3)n12", "strain": "YS/R (TK-)", "cells": "HEL", "value": ">2 µg/mL"}
{"structure": "CCCCCCOCCCc1cc2cn([C@H]3C[C@H](O)[C@@H](CO)O3)c(=O)nc2o1", "strain": "OKA", "cells": "HEL", "value": "5.9 µM"}
{"structure": "OC[C@H]1O[C@@H](c2cc(C(O)CI)c(F)cc2F)C[C@@H]1O", "strain": "OKA (TK+)", "cells": "HEL", "value": "100 µg/mL"}
{"structure": "CCOc1ccc(-c2cc3cn([C@H]4C[C@H](O)[C@@H](CO)O4)c(=O)nc3o2)cc1", "strain": "OKA", "cells": "HEL", "value": "0.009 µM"}
{"structure": "Nc1nc(N)c2ncn(CCOCP(=O)(O)O)c2n1", "strain": "07/1 (TK-)", "cells": "HEL", "value": "5.2 µM"}
{"structure": "CCCCCc1ccc(-c2cc3cn(C4CC[C@@H](CO)O4)c(=O)nc3o2)cc1", "strain": "YS (TK+)", "cells": "HEL", "value": "1.5 µM"}
{"structure": "O=C(O)P(=O)(O)O", "strain": "OKA (TK+)", "cells": "HEL", "value": "67 µM"}
{"structure": "CCCc1ccc(-c2cc3cn(C4CC[C@@H](CO)O4)c(=O)nc3o2)cc1", "strain": "YS (TK+)", "cells": "HEL", "value": ">50 µM"}
{"structure": "CN1CCN(n2cc(C(=O)NCc3ccc(Cl)cc3)c(=O)c3cc(CN4CCOCC4)ccc32)CC1", "strain": "Webster", "cells": "HFF", "value": "0.8 µM"}
{"structure": "Nc1ncnc2c1ncn2C[C@@H](CO)OCP(=O)(O)O", "strain": "YS/R (TK-)", "cells": "HEL", "value": "0.014 µM"}
{"structure": "CCCCCCCc1ccc(-c2cc3cn(C4CC[C@@H](CO)O4)c(=O)nc3o2)cc1", "strain": "OKA (TK+)", "cells": "HEL", "value": "5 µM"}
{"structure": "CCCCCCCOCCc1cc2cn([C@H]3C[C@H](O)[C@@H](CO)O3)c(=O)nc2o1", "strain": "OKA", "cells": "HEL", "value": "17 µM"}
{"structure": "COc1nc(=O)n([C@H]2C[C@H](O)[C@@H](CO)O2)cc1/C=C/Cl", "strain": "YS", "cells": "HEL", "value": "2 µg/mL"}
{"structure": "C#Cc1cn(S(=O)(=O)c2ccc(C)cc2)c(=O)[nH]c1=O", "strain": "OKA", "cells": "HEL", "value": ">16 µM"}
{"structure": "CC(C)(C)[Si](C)(C)OC[C@H]1O[C@@H](n2ccc(=O)[nH]c2=O)[C@H](O[Si](C)(C)C(C)(C)C)[C@@]12O[C@H]2C(=O)NN", "cells": "MRC-5", "value": "4 µM"}
{"structure": "CCCCCOc1ccc(-c2cc3cn([C@H]4C[C@H](O)[C@@H](CO)O4)c(=O)nc3o2)cc1", "strain": "07/1 (TK-)", "cells": "HEL", "value": "3.2 µM"}
{"structure": "CC#Cc1cn([C@@H]2O[C@H](CO)[C@@H](O)[C@@H]2O)c(=O)[nH]c1=O", "strain": "13 isolates", "cells": "HEL", "value": "0.46 µM"}
{"structure": "CCCCCCCCCCC#Cc1c[nH]c(=O)[nH]c1=O", "strain": "07/1", "cells": "HEL", "value": ">16 µM"}
{"structure": "CC(C)(C)[Si](C)(C)OC[C@H]1O[C@@H](n2ccc(=O)[nH]c2=O)[C@H](O[Si](C)(C)C(C)(C)C)/C1=C/CO", "cells": "MRC-5", "value": "3 µM"}
{"structure": "CCCCCCCOc1ccc(-c2cc3cn([C@H]4C[C@H](O)[C@@H](CO)O4)c(=O)nc3o2)cc1", "strain": "OKA", "cells": "HEL", "value": "0.006 µM"}
{"structure": "Cc1c(Br)cc(Br)c2ncc(CSCc3cccc(C(F)(F)F)c3)n12", "strain": "YS/R (TK-)", "cells": "HEL", "value": ">5 µg/mL"}
{"structure": "Nc1nc2c(ncn2COCCO)c(=O)[nH]1", "strain": "OKA (TK+)", "value": "0.24 µg/mL"}
{"structure": "O=c1[nH]c(=O)n([C@H]2C[C@H](O)[C@@H](CO)O2)cc1-c1ccc(Br)s1", "strain": "OKA (TK+)", "cells": "HEL", "value": "0.072 µM"}
{"structure": "Nc1nc2c(ncn2CCC(CO)CO)c(=O)[nH]1", "strain": "Kawaguchi", "cells": "HEL", "value": "5.6 µg/mL"}
{"structure": "CCCCC#Cc1cn(S(=O)(=O)c2ccc(C)cc2)c(=O)[nH]c1=O", "strain": "07/1", "cells": "HEL", "value": ">16 µM"}
{"structure": "CCc1ccc(OCCCc2cc3cn([C@H]4C[C@H](O)[C@@H](CO)O4)c(=O)nc3o2)cc1", "strain": "(TK-)/YS/R", "cells": "HEL", "value": ">20 µM"}
{"structure": "Nc1nc(=O)n([C@H]2C[C@H](O)[C@@H](CO)O2)cc1/C=C/Cl", "strain": "OKA", "cells": "HEL", "value": "0.02 µg/mL"}
{"structure": "Cc1cc(C)n2cc(-c3ccccc3)cc2c1", "strain": "G-31", "cells": "MRC-5", "value": "10 µM"}
{"structure": "Nc1nc2c(ncn2COC(CO)CO)c(=O)[nH]1", "strain": "YS/R (TK-)", "cells": "HEL", "value": "7.1 µM"}
{"structure": "O=c1nc2oc(CCCC3OCCCO3)cc2cn1[C@H]1C[C@H](O)[C@@H](CO)O1", "strain": "YS", "cells": "HEL", "value": ">200 µM"}
{"structure": "CCCCCCOc1ccc(-c2cc3cn([C@H]4C[C@H](O)[C@@H](CO)O4)c(=O)nc3o2)cc1", "strain": "YS", "cells": "HEL", "value": "0.0014 µM"}
{"structure": "Cc1ccccc1CSCc1cnc2c(Br)cc(Br)c(C)n12", "strain": "07/1 (TK-)", "cells": "HEL", "value": ">5 µg/mL"}
{"structure": "CCCCOC(=O)c1ccc2cc(-c3ccccc3)cn2c1", "strain": "G-31", "cells": "MRC-5", "value": "20 µM"}
{"structure": "Cc1c(Br)cc(Br)c2ncc(CSCc3ccccc3F)n12", "strain": "OKA (TK+)", "cells": "HEL", "value": ">5 µg/mL"}
{"structure": "Fc1ccccc1-c1cc2ccccn2c1", "strain": "G-31", "cells": "MRC-5", "value": ">100 µM"}
{"structure": "CC1(C)[C@@H](CCO)C[C@H]1n1nnc2c(N)ncnc21", "strain": "(TK-)/YS/R", "cells": "HEL", "value": ">20 µg/mL"}

A second listing of 4 rows from above:

structure	strain	cells	value
O=c1[nH]c(=O)n([C@H]2C[C@H](O)[C@@H](CO)O2)cc1-c1ccc(Br)s1	OKA (TK+)	HEL	0.072 µM
CCCCCCOc1ccc(-c2cc3cn([C@H]4C[C@H](O)[C@@H](CO)O4)c(=O)nc3o2)cc1	YS	HEL	0.0014 µM
CC1(C)[C@H](CCO)C[C@@H]1n1nnc2c(N)ncnc21	OKA (TK+)		3.2 µg/mL
CCCCC#Cc1cn(S(=O)(=O)c2ccc(C)cc2)c(=O)[nH]c1=O	07/1	HEL	>16 µM

Conditions beyond the fields shown may differ between rows. ECn is the concentration giving n% inhibition of infection, replication or growth. An empty or dashed field is not shown.